Compound potency records, mixed from different reports. Data source: NIAID ChemDB in PubChem.

Shared fields: target-level tests; organism: HIV-1; target: Integrase; read-out: IC50

ICn is the concentration giving n% inhibition. a–b is a range or a potency band. Neighbouring rows are from separate reports.

smiles	read by	value
Cc1ccc(CNC(=O)c2nc3n(c(=O)c2O)CCN(C2CC2)CC3N(C)C(=O)C(=O)N(C)C)cc1Cl	ELISA	<10 µM
O=C(O)/C(O)=C/C(=O)N(CCc1ccc(F)cc1)Cc1csc2ccc(Cl)cc12	strand transfer	<70 µM
CN(C)CC1c2nc(C(=O)NCc3ccc(F)cc3)c(O)c(=O)n2CCN1Cc1ccn(C)n1	ELISA	<10 µM
CS(=O)(=O)Cc1cc(=O)c(O)c2n1CCN(Cc1ccc(Cl)c(Cl)c1)C2=O	ELISA	0.01–0.1 µM
CN(CCOc1ccc(Cl)cc1Cc1ccccc1)C(=O)/C=C(\O)C(=O)O	strand transfer	<70 µM
O=c1c(O)c2c(=O)n(Cc3cccc(Cl)c3)ccn2c2ccccc12	ELISA	0.01–0.1 µM
COc1ccccc1CNC(=O)/C=C(\O)C(=O)O	strand transfer	~70 µM
CC(C)n1c(=O)c(O)c2n(c1=O)CCN(Cc1ccc3ccccc3n1)C2=O	strand transfer	<10 µM
COc1ccc(CN(Cc2ccc(F)cc2)C(=O)/C=C(\O)C(=O)O)c(OC)c1	strand transfer	<70 µM
CC1NCCn2c1nc(C(=O)NCc1ccc(F)cc1)c(O)c2=O	ELISA	<10 µM
CS(=O)c1cn2ccn(Cc3cccc(Cl)c3)c(=O)c2c(O)c1=O	ELISA	0.01–0.1 µM
CN(C)C(=O)C(=O)N1CCn2c(nc(C(=O)NCc3ccc(F)cc3)c(O)c2=O)C1(C)C	ELISA	<10 µM
CC(C)n1c(=O)c(O)c2n(c1=O)C(COCc1ccccc1)CN(Cc1ccc(F)cc1)C2=O	strand transfer	<10 µM
CC(=O)N(CC1CCCCC1)C1CN(C)CCn2c1nc(C(=O)NCc1ccc(F)cc1)c(O)c2=O	ELISA	<10 µM
CC(c1ccccn1)n1c(=O)c(O)c2n(c1=O)CCN(Cc1ccc(F)cc1)C2=O	strand transfer	<10 µM
O=C(O)/C(O)=C/C(=O)N(Cc1ccc(F)cc1)c1ccc(F)cc1OCc1ccc(F)cc1	strand transfer	<70 µM
COCC(C)n1c(=O)c(O)c2n(c1=O)CCN(Cc1ccc(F)cc1)C2=O	strand transfer	<10 µM
CN1Cn2c(nc(C(=O)NCc3ccc(F)cc3)c(O)c2=O)C12CCCCC2	ELISA	<10 µM
CC(O)CNC(=O)c1cn2ccn(Cc3cccc(Cl)c3)c(=O)c2c(O)c1=O	ELISA	0.01–0.1 µM
O=C(O)/C(O)=C/C(=O)N(CCCc1ccccc1F)Cc1ccc(F)cc1	strand transfer	<70 µM
CC(=O)N(Cc1ccccc1)C1CN(C)CCn2c1nc(C(=O)NCc1ccc(F)cc1)c(O)c2=O	ELISA	<10 µM
O=C(Cc1ccccn1)Nc1cn2ccn(Cc3cccc(Cl)c3)c(=O)c2c(O)c1=O	ELISA	0.01–0.1 µM
O=C(O)/C(O)=C/C(=O)N(Cc1ccc(F)cc1)CC1CC1c1ccccc1	strand transfer	<70 µM
Cc1ccc(CNC(=O)c2nc3n(c(=O)c2O)CCN(C)CC3N(C)C(=O)C(=O)N(C)C)cc1Cl	ELISA	<10 µM

Repeating the final 3 entries:

smiles | read by | value
O=C(Cc1ccccn1)Nc1cn2ccn(Cc3cccc(Cl)c3)c(=O)c2c(O)c1=O | ELISA | 0.01–0.1 µM
O=C(O)/C(O)=C/C(=O)N(Cc1ccc(F)cc1)CC1CC1c1ccccc1 | strand transfer | <70 µM
Cc1ccc(CNC(=O)c2nc3n(c(=O)c2O)CCN(C)CC3N(C)C(=O)C(=O)N(C)C)cc1Cl | ELISA | <10 µM